Compound potency records, mixed from different reports. Data source: NIAID ChemDB in PubChem.

Shared fields: whole-cell or culture tests; organism: Herpes simplex virus 2; measure: EC50

ECn is the concentration giving n% inhibition of infection, replication or growth.

SMILES	cell line	strain or isolate	value
CC(=O)OCCOCN1C(N)=CC(N)=NS1(=O)=O	E6SM	G	>400 µg/mL
Cc1cn([C@@H]2O[C@H](COP(=O)(O)O)[C@@H](O)[C@H]2O)c(=O)nc1N		G	>400 µg/mL
[N-]=[N+]=N[C@H]1C[C@@H](CO)S[C@@H]1n1ccc(N)nc1=O			>100 µg/mL
CC(=O)NC1C(O)OC(CO)C(O)C1OC1OC(C(=O)[O-])C(OC2OC(CO)C(O)C(OC3OC(C(=O)[O-])C(O)C(O)C3O)C2NC(C)=O)C(O)C1O.[Na+].[Na+]		196	>400 µg/mL
CC1=CC(=O)N(c2ccccc2)S(=O)(=O)N1COCCO	E6SM	G	>400 µg/mL
CC(C)c1cn([C@@H]2O[C@H](COP(=O)(O)O)[C@@H](O)[C@H]2O)c(=O)nc1N		G	>400 µg/mL
[N-]=[N+]=N[C@H]1C[C@@H](CO)S[C@H]1n1ccc(N)nc1=O			>100 µg/mL
CC(=O)OCCOCN1C(C)=CC(N)=[N+](c2ccccc2)S1(=O)=O	E6SM	LYONS	>400 µg/mL
CNc1ncnc2c1ncn2[C@@H]1S[C@H](CO)C[C@@H]1N=[N+]=[N-]			>100 µg/mL
C/C(O)=C1\C(=N)N(COCCO)S(=O)(=O)N=C1N	E6SM	LYONS	>400 µg/mL
CCCCCc1cn([C@@H]2O[C@H](COP(=O)(O)O)[C@@H](O)[C@H]2O)c(=O)nc1N		196	>400 µg/mL
[N-]=[N+]=N[C@H]1C[C@H](CO)S[C@H]1n1ccc(=O)[nH]c1=O			>100 µg/mL
CC(=O)OCCOCN1C=CC(=O)NS1(=O)=O	E6SM	G	>400 µg/mL
CCc1cn([C@@H]2O[C@H](COP(=O)(O)O)[C@@H](O)[C@H]2O)c(=O)nc1N		G	>400 µg/mL
[N-]=[N+]=N[C@H]1C[C@@H](CO)S[C@H]1n1cnc2c(N)ncnc21			>100 µg/mL
CCCCCCc1cn([C@@H]2O[C@H](COP(=O)(O)O)[C@@H](O)[C@H]2O)c(=O)nc1N		LYONS	>400 µg/mL
CCOC(=O)C1=CN(COCCO)S(=O)(=O)NC1=O	E6SM	LYONS	>400 µg/mL
CCCCc1cn([C@@H]2OC3COP(=O)(O)OC3[C@H]2O)c(=O)nc1N		196	>400 µg/mL
[N-]=[N+]=N[C@@H]1C[C@@H](CO)S[C@H]1n1cnc2c(=O)[nH]cnc21			>100 µg/mL

For reference, 2 entries again:

CCCCCc1cn([C@@H]2O[C@H](COP(=O)(O)O)[C@@H](O)[C@H]2O)c(=O)nc1N ; strain or isolate: 196 ; value: >400 µg/mL
CCc1cn([C@@H]2O[C@H](COP(=O)(O)O)[C@@H](O)[C@H]2O)c(=O)nc1N ; strain or isolate: G ; value: >400 µg/mL

Blank or dashed fields: not listed here. Rows are shuffled and stem from different studies.